Measured values from several laboratories, pooled; numbers as filed in NIAID ChemDB.

Common to all: enzyme or target tests

Fold resistance has wild type as its base. An empty or dashed field is not shown. ICn: concentration for n% inhibition. Percent inhibition refers to the dose given; in toxicity tests it is the harm to the cells. Neighbouring rows are from separate reports.

structure,changes,strain,target,read-out,dose,read by,organism,result
COc1cnccn1,,RH,Uracil phosphoribosyltransferase,inhibition,2000 µM,,Toxoplasma gondii,<10%
Cc1cn([C@@H]2O[C@H](CO[Si](C)(C)C(C)(C)C)C3(OS(=O)(=O)C=C3N)[C@H]2O[Si](C)(C)C(C)(C)C)c(=O)n(C)c1=O,RT-N137Q,,Reverse transcriptase,fold resistance,,nucleotide incorporation / radiometric,HIV,0.5
CCSCCNc1nnc(NC(=O)c2ccc(C(F)(F)F)cc2)s1,,,Polymerase,IC50,,,Human cytomegalovirus,>25 µM
Nc1cc(=O)[nH]c(=S)[nH]1,,RH,Uracil phosphoribosyltransferase,inhibition,2000 µM,,Toxoplasma gondii,<10%
O=C(C1CCCCC1)N1C[C@H](CN2CCC(c3ccccc3)CC2)[C@@H](c2ccccc2)C1,CCR5-Y251A,,CCR5,fold resistance,,radiometric,,12.17
Nc1nc2c(ncn2[C@H]2CC[C@@H](COP(=O)(O)OP(=O)(O)OP(=O)(O)O)O2)c(=O)[nH]1,RT-N137K,,Reverse transcriptase,IC50,,nucleotide incorporation / radiometric,HIV,6.4 µM
CO[P@](=O)(c1cc(C)cc(/C=C/C#N)c1)c1c(C(N)=O)[nH]c2ccc(Cl)c(F)c12,Y181C/K103,,Reverse transcriptase,IC50,,,HIV,1.411 µM
NS(=O)(=O)c1ccc(CCNc2nnc(NC(=O)CCCCCl)s2)cc1,,,Polymerase,IC50,,,Human cytomegalovirus,>25 µM
CSC1=NC(=O)CC(=O)N1,,RH,Uracil phosphoribosyltransferase,IC50,,,Toxoplasma gondii,>2000 µM
Cc1cn([C@@H]2O[C@H](CO[Si](C)(C)C(C)(C)C)[C@@]3(OS(=O)(=O)C=C3N)[C@H]2O[Si](C)(C)C(C)(C)C)c(=O)[nH]c1=O,RT-N137A,,Reverse transcriptase,IC50,,nucleotide incorporation / radiometric,HIV,1.8 µM
O=c1ccn(Cc2ccccc2)c(=O)[nH]1,,RH,Uracil phosphoribosyltransferase,inhibition,2000 µM,,Toxoplasma gondii,<5%
O=C(Nc1nnc(NCCCCc2ccccc2)s1)c1ccc(I)cc1,,,Polymerase,IC50,,,Human cytomegalovirus,<25 µM
CC(C)C(=O)N1C[C@H](CN2CCC(c3ccccc3)CC2)[C@@H](c2ccccc2)C1,CCR5-Y108A,,CCR5,IC50,,radiometric,,3.2 µM
O=C(Nc1nnc(NCCc2c[nH]c3ccccc23)s1)c1c(Cl)cccc1Cl,,,Polymerase,IC50,,,Human cytomegalovirus,>25 µM
O=C(O)c1[nH]c(=O)[nH]c(=O)c1[N+](=O)[O-],,RH,Uracil phosphoribosyltransferase,inhibition,2000 µM,,Toxoplasma gondii,<5%
O=C(c1ccccc1)N1C[C@H](CN2CCC(c3ccccc3)CC2)[C@@H](c2ccccc2)C1,CCR5-E283A,,CCR5,IC50,,radiometric,,>10 µM
O=C(Nc1nnc(NCCc2cccs2)s1)c1c(Cl)cccc1Cl,,,Polymerase,IC50,,,Human cytomegalovirus,<25 µM
Cc1cnccn1,,RH,Uracil phosphoribosyltransferase,IC50,,,Toxoplasma gondii,>2000 µM

2 of the rows above, restated:

structure,changes,strain,target,read-out,dose,read by,organism,result
O=C(Nc1nnc(NCCCCc2ccccc2)s1)c1ccc(I)cc1,,,Polymerase,IC50,,,Human cytomegalovirus,<25 µM
Cc1cnccn1,,RH,Uracil phosphoribosyltransferase,IC50,,,Toxoplasma gondii,>2000 µM